Compound potency records, mixed from different reports. Data source: NIAID ChemDB in PubChem.

Shared fields: whole-cell or culture tests; agent: Candida albicans

MIC50, MIC90 and the like: level of inhibition, or share of isolates inhibited.

compound	strain	method	setting	measure	value
Oc1cccc(C=NNc2ccnc3cc(Cl)ccc23)c1				MIC	>200 µg/mL
C[C@@H]1CCC2(OC1)OC1CC3C4C[C@H](O)[C@H]5C[C@@H](O)CC[C@]5(C)C4CC(=O)[C@]3(C)C1[C@@H]2C	ATCC 90028			MFC	10 µg/mL
O=C(CSc1nnc(-c2ccc(N=Cc3cccs3)cc2)o1)Nc1ccccc1Cl	MTCC 227	broth dilution		MIC	500 µg/mL
O=C1C(Cl)=C(Nc2ccc(S(=O)(=O)Nc3nncs3)cc2)C(=O)c2ccccc21				MIC	50 µg/mL
NNC(=O)c1cc(O)ccc1O	Clinical isolates			MIC	125–250 µg/mL
O=C(O)c1ccccc1SC(C[N+](=O)[O-])c1ccccc1	ATCC64550			MIC	3.9 µg/mL
CC(n1nccn1)C(O)(Cn1cncn1)c1ccc(C(F)(F)F)cc1	TA			MIC	>100 µg/mL
Cc1nn(-c2ccc(S(=O)(=O)NC(=S)Nc3ccc(F)cc3)cc2)c(=O)c2c(C)noc12	ATCC 10231	broth dilution		MIC	12.5 µg/mL
O=C(NCCCN1CCOCC1)c1ccc(-c2ccc(-c3ccc(C(=O)NCCCN4CCOCC4)cc3)o2)cc1	A39			MIC80	>100 µg/mL
CC(/C=C/C=C(\C)C(O)C(C)C(=O)O[C@H]1C[C@@H](C)C=C2C=C[C@]3(C)O[C@@H](O)CC(=O)[C@]3(C)[C@H]21)=C\C=C\C(=O)O	579A			MIC	0.78 µg/mL
Cc1nc2c(=O)n(C(=S)Nc3ccc(Cl)cc3)nc(C)c2s1	ATCC 10231	broth dilution		MIC	50 µg/mL
CCOC(=O)C1C(=O)C=C(c2ccc(F)cc2)CC1c1ccc(C2CC(c3ccc(F)cc3)=CC(=O)C2C(=O)OCC)cc1	Clinical isolate			MIC	6.25 µg/mL
CCCCCCSc1cc(=S)ss1	ATCC 10231			MIC	250 µg/mL
N=C(N)c1ccc(OCCCC(O)COc2ccc(C(=N)N)cc2)cc1	103.96			MFC	12.5 µg/mL
CCCOc1ccc(C(=O)O)c(O)c1	Clinical isolates			MIC	125–250 µg/mL
CC(n1nccn1)C(O)(Cn1cncn1)c1ccccc1F	TA			MIC	100 µg/mL
O=C(CSc1nnc(-c2ccc(N=Cc3cccs3)cc2)o1)Nc1ccc([N+](=O)[O-])cc1	MTCC 227	broth dilution		MIC	100 µg/mL
Clc1ccc(CO/N=C(/Cn2ccnc2)c2ccc(Cl)cc2Cl)c(Cl)c1				MIC	6.25 µg/mL
C=C(C)CN=C(N)NCCCCCCCN1CCCCCCCCN=C(N)NC1=O	53T			MIC50	40 µM
CC(=O)N1CCN(c2ccc(OC[C@H]3CO[C@](Cn4ccnc4)(c4ccc(Cl)cc4Cl)O3)cc2)CC1	ATCC 14053			MIC90	0.5 µg/mL
Cc1c(C(=O)N(CCO)CCO)cc(-c2ccc([N+](=O)[O-])cc2)n1Cc1ccccc1	20 strains			MIC	>200 µg/mL
CCOC(=O)c1ccccc1S(=O)(=O)NC(=O)Nc1nc(Br)cc(OC)n1		broth dilution		MIC90	6.25 µM
O=C(O)c1ccccc1SC(C[N+](=O)[O-])c1ccc([N+](=O)[O-])cc1	ATCC64550			MIC	3.9 µg/mL
CCCCCOc1ccc(C(=O)NN)c(O)c1	Clinical isolates			MIC	125–250 µg/mL
COc1cccc(OC)c1C(=O)Nc1cc(Cl)ccc1O				MIC	25 µg/mL
CCOC(=O)C1C(=O)C=C(c2ccc(OC)cc2)CC1c1ccc(C2CC(c3ccc(OC)cc3)=CC(=O)C2C(=O)OCC)cc1	Clinical isolate			MIC	12.5 µg/mL
CC(n1ccnn1)C(O)(Cn1cncn1)c1ccc(C(F)(F)F)cc1	TA			MIC	>100 µg/mL
CN[C@@H]1[C@H](O[C@@H]2OC[C@@H](O)[C@H](O)[C@H]2O)[C@@H](O)[C@H](O[C@H]2c3cc(C)c(C(=O)NCC(=O)O)c(O)c3-c3c(cc4c(c3O)C(=O)c3cc(OC)cc(O)c3C4=O)[C@@H]2O)O[C@@H]1CO	A9540			MIC	6.3 µg/mL
Cc1ccc(NC2=C(Br)C(=O)c3ccccc3C2=O)cc1				MIC	25 µg/mL
CCC(C)CC(C)CCCCCCCCC(=O)N[C@H]1C[C@@H](O)[C@H](NCCN)NC(=O)[C@@H]2[C@@H](O)CCN2C(=O)[C@H]([C@H](O)CCN)NC(=O)[C@H]([C@H](O)[C@@H](O)c2ccc(O)cc2)NC(=O)[C@@H]2C[C@@H](O)CN2C(=O)[C@H]([C@@H](C)O)NC1=O	40 isolates			Mean MIC	0.37 µg/mL
C[C@@H](n1ccnn1)[C@](O)(Cn1cncn1)c1ccc(F)cc1	TA			MIC	>100 µg/mL
O=C(O)c1cccc(NC2=C(Cl)C(=O)c3ccccc3C2=O)c1				MIC	100 µg/mL
C[C@H](n1ccnn1)[C@@](O)(Cn1cncn1)c1ccccc1F	TA			MIC	100 µg/mL
Cc1ccc(/C=N/Nc2ccnc3cc(Cl)ccc23)cc1				MFC	60 µg/mL
NC(N)=NCCCCCCCCCNCCCCCCCN=C(N)N	4T			MIC50	80 µM
Clc1ccc(C(CCOc2ccccc2Br)Cn2ccnc2)c(Cl)c1				MIC	>100 µg/mL
O=C(Cc1ccc([N+](=O)[O-])cc1)Nc1ccccc1O				MIC	25 µg/mL
N=Nc1c(Cl)c(O)c2ccccc2c1O				MIC	100 µg/mL
CC(n1ncnn1)C(O)(Cn1cncn1)c1ccc(F)cc1F	TA			MIC	12.5 µg/mL
Cc1c(C(=O)N(CCO)CCO)cc(-c2ccc([N+](=O)[O-])cc2)n1-c1ccc(Cl)cc1	20 strains			MIC	>200 µg/mL
C[C@@H]1C(=O)N(CCc2ccccc2)C(=O)[C@@H]1C	ATCC 10231	broth dilution / turbidity		MIC	15.6 µg/mL
Cc1c(C(=O)N2CCN(C)CC2)cc(-c2ccc([N+](=O)[O-])cc2)n1C	20 strains			MIC	>200 µg/mL
CN(Cc1cnc2nc(N)nc(N)c2n1)c1ccc(C(=O)N[C@@H](CCC(=O)O)C(=O)O)cc1	ATCC28366			MIC	1024 µg/mL
COc1ccccc1C(=O)Nc1cc(Cl)ccc1O				MIC	12.5 µg/mL
O=C(CSc1nnc(-c2ccc(N=Cc3cccs3)cc2)o1)Nc1ccccc1[N+](=O)[O-]	MTCC 227	broth dilution		MIC	250 µg/mL
N=C(N)c1ccc(OCCCCCCOc2ccc(C(=N)N)cc2)cc1	A39			MIC80	1.58 µg/mL
CCc1ccc(C(C[N+](=O)[O-])Sc2ccccc2C(=O)O)cc1	ATCC64550			MIC	3.9 µg/mL
CC(C)=CCCNC(N)=NCCCCCCCCCNCCCCCCCN=C(N)N	ATCC 60193			MIC50	80 µM
Cc1nn(-c2ccc(S(=O)(=O)/N=C3\SCC(=O)N3c3ccc(F)cc3)cc2)c(=O)c2c(C)noc12	ATCC 10231	broth dilution		MIC	25 µg/mL
N#Cc1ccc(/C=N/Nc2ccnc3cc(Cl)ccc23)cc1				MIC	>200 µg/mL
CCOC(=O)C1C(=O)C=C(c2ccc(Cl)cc2)CC1c1ccc(C2CC(c3ccc(Cl)cc3)=CC(=O)C2C(=O)OCC)cc1	Clinical isolate			MIC	12.5 µg/mL
Clc1ccccc1C(c1ccccc1)(c1ccccc1)n1ccnc1	ATCC 10231	broth dilution		MIC	6.25 µg/mL
C[C@H]1[C@H](O)[C@@H](C)/C=C/C=C/C=C/C=C/C=C/C=C/C=C/[C@H](O[C@@H]2O[C@H](C)[C@@H](O)[C@H](N)[C@@H]2O)C[C@@H]2O[C@](O)(C[C@@H](O)C[C@@H](O)CC[C@H](O)[C@@H](O)C[C@@H](O)CC(=O)O[C@H]1C)C[C@H](O)[C@H]2C(=O)O	ATCC 64549			MIC	0.5 µg/mL
Clc1ccc(C(CCCOc2ccccc2)Cn2ccnc2)c(Cl)c1				MIC	>100 µg/mL
O=C(CSc1nnc(-c2ccc(N=Cc3cccs3)cc2)o1)Nc1ccc(Br)cc1	MTCC 227	broth dilution		MIC	1000 µg/mL
N=C(N)c1ccc2nc(-c3ccc(-c4nc5ccc(C(=N)N)cc5[nH]4)[nH]3)[nH]c2c1	ATCC 76615			MIC	0.39 µg/mL
C[C@@H]1[C@H](O)[C@@H](C)/C=C/C=C/C=C/C=C/C=C/C=C/C=C/[C@H](O[C@@H]2O[C@H](C)[C@@H](O)[C@H](N)[C@@H]2O)C[C@@H]2O[C@](O)(C[C@@H](O)C[C@@H](O)[C@H](O)CC[C@@H](O)C[C@@H](O)CC(=O)O[C@H]1C)C[C@H](O)[C@H]2C(=O)O	UMIP 48.72	broth dilution		MIC	0.064 µg/mL
CCN(CC)CCCC(C)Nc1c2ccc(Cl)cc2nc2ccc(OC)cc12	SC5314	broth dilution	biofilm	MIC50	256 µg/mL
CC(C(Sc1ccccc1C(=O)O)c1ccccc1)[N+](=O)[O-]	ATCC64550			MIC	15.6 µg/mL
Cc1c(C(=O)N(CCO)CCO)cc(-c2ccc([N+](=O)[O-])cc2)n1-c1ccccc1Cl	20 strains			MIC	>200 µg/mL
Cc1nn(-c2ccc(S(=O)(=O)NC(=S)Nc3ccc(Cl)cc3)cc2)c(=O)c2c(C)noc12	ATCC 10231	broth dilution		MIC	25 µg/mL
O=C1C(Br)=C(Nc2cccc([N+](=O)[O-])c2)C(=O)c2ccccc21				MIC	25 µg/mL
CC(C)=CCN=C(N)NCCCCCCCCCNCCCCCCCNC(N)=NCC=C(C)C	15T			MIC50	>80 µM
CC(C)C[C@H](N)C(=O)O	D 17	broth dilution		MFC100	>72000 µg/mL
CCCCCCCCSc1cc(=S)ss1	ATCC 10231			MIC	>250 µg/mL
CC1CC(=O)N(Cc2ccccc2)C1=O	ATCC 10231	broth dilution / turbidity		MIC	62.5 µg/mL
COc1ccc(OCCC(Cn2ccnc2)c2ccc(Cl)cc2Cl)cc1				MIC	100 µg/mL
O=C1C(=O)c2ccccc2C(O)=C1Nc1ccc(C(=O)O)cc1				MIC	100 µg/mL
Cc1ccc(C(C[N+](=O)[O-])Sc2ccccc2C(=O)O)cc1	ATCC64550			MIC	3.9 µg/mL
C=CCSS(=O)CC=C	Clinical Isolate 3151	broth dilution		MIC50	0.2 µg/mL
C=CCSS(=O)CC=C	ATCC 14053			MIC50	0.05 µg/mL
N=C(N)c1ccc(Oc2ccc(-c3cc4ccc(C(=N)N)cc4[nH]3)cc2)cc1	CAF2-1			MIC80	1.25–2.5 µg/mL
CCC(C)n1ncn(-c2ccc(N3CCN(c4ccc(OC[C@H]5CO[C@](Cn6cncn6)(c6ccc(Cl)cc6Cl)O5)cc4)CC3)cc2)c1=O	Clinical isolates			MIC	0.898 µg/mL
Cc1ccccc1N1C(=O)C[C@@H](C)C1=O	ATCC 10231	broth dilution / turbidity		MIC	125 µg/mL
Clc1ccc(C(CCOc2ccccc2Cl)Cn2ccnc2)c(Cl)c1				MIC	>100 µg/mL
Cc1c(C(=O)N(CCO)CCO)cc(-c2ccc([N+](=O)[O-])cc2)n1Cc1ccc(Cl)cc1	20 strains			MIC	>200 µg/mL
Nc1ccccc1NC1=C(O)c2ccccc2C(=O)C1=O				MIC	100 µg/mL
CCCCC/C=C\C/C=C/CC/C=C/[C@H]1C[C@H]([C@](O)(CC(=O)O[C@@H](C(=O)O)[C@H](CC(=O)O)C(=O)O)C(=O)O)C(=O)O1				MIC	6.9 µM
CO/N=C(/N)c1ccc(-c2ccc(-c3ccc(/C(N)=N\OC)cc3)o2)cc1	A39			MIC80	>100 µg/mL
Clc1ccc(OCCCC(Cn2ccnc2)c2ccc(Cl)cc2Cl)cc1				MIC	>100 µg/mL
CC(n1ccnn1)C(O)(Cn1cncn1)c1ccc(Cl)cc1	TA			MIC	>100 µg/mL
CCSSc1ssc(=S)c1OC	Clinical isolate 00-604			MIC	<0.13 µg/mL
CC(C)CC(O)C(=O)O	ATCC 10231	broth dilution / visual reading		MFC100	72000 µg/mL
S=c1cc(Sc2ccccc2)ss1	Clinical isolate 00-604			MIC	<0.13 µg/mL
CC1CC(=O)N(c2ccc([N+](=O)[O-])cc2)C1=O	ATCC 10231	broth dilution / turbidity		MIC	250 µg/mL

A second listing of 8 rows from above:

compound,strain,method,setting,measure,value
O=C(CSc1nnc(-c2ccc(N=Cc3cccs3)cc2)o1)Nc1ccccc1[N+](=O)[O-],MTCC 227,broth dilution,,MIC,250 µg/mL
N#Cc1ccc(/C=N/Nc2ccnc3cc(Cl)ccc23)cc1,,,,MIC,>200 µg/mL
Clc1ccc(C(CCCOc2ccccc2)Cn2ccnc2)c(Cl)c1,,,,MIC,>100 µg/mL
CC1CC(=O)N(Cc2ccccc2)C1=O,ATCC 10231,broth dilution / turbidity,,MIC,62.5 µg/mL
Cc1c(C(=O)N(CCO)CCO)cc(-c2ccc([N+](=O)[O-])cc2)n1Cc1ccc(Cl)cc1,20 strains,,,MIC,>200 µg/mL
CC(C)C[C@H](N)C(=O)O,D 17,broth dilution,,MFC100,>72000 µg/mL
O=C(Cc1ccc([N+](=O)[O-])cc1)Nc1ccccc1O,,,,MIC,25 µg/mL
CC(C)=CCCNC(N)=NCCCCCCCCCNCCCCCCCN=C(N)N,ATCC 60193,,,MIC50,80 µM

a–b is a range or a potency band. Rows are shuffled and stem from different studies. Blank or dashed fields: not listed here.